Read-outs that look alike come from different tables or passages of the source.
Target: radiolabeled w.t. HIVYU2 gp120 binding to Cf2Th-CCR5 cells (Human immunodeficiency virus type 1 group M subtype B, UniProt P35961)
Assay type: cell-based, HIV

Row | Compound | enhancement of gp120 binding to CCR5+ cells (in words) | enhancement of gp120 binding to CCR5+ cells (in words) (w.t. gp120)
1 | COc1ccnc2[nH]cc(C(=O)C(=O)N3CCN(C(=O)c4ccccc4)C[C@H]3C)c12 [BMS-806] | did not enhance the binding | 
2 | CC1(C)CC(NC(=O)C(=O)Nc2ccc(Br)cc2)CC(C)(C)N1 [NBD-557] |  | comparably to NBD-556
